PubChem BioAssay AID504761, Drosophila RNAi Screening Center | 2011

- Purpose: 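Insect host genes that dengue virus relies on to spread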 (primary screen)
- Cells: D.Mel-2 cells from Drosophila
- Reagents: long dsRNA against Drosophila genes
- Treatment: infection with dengue virus type 2; dose and infection time not stated
- Detection: 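Cells stained for dengue envelope protein and imaged; percent of infected cells per well on duplicate plates, ranked by infection, with stained nuclei counted for cell number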
- Scale: infection score: higher = more virus-infected cells; cell count: higher = more cells in the well
- Active means: 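Very low infection ranking in both replicate wells (chance probability at most 0.065), then a retest showing infection dropped 1.5-fold or more at p below 0.05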
- Calls: active = confirmed: knock-down lowers infection; inactive = not picked or not confirmed
The screen tested about 22,000 reagents; shown is an unselected part of those that have a named target and a result. Over the whole deposit, 116 (0.52%) were called active. 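Calls depend on retest data that are not deposited; infection was ranked per plate without normalising between plates; the unit of the infection score is not given.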 Raw values are not corrected between plates. The numbers tell different reagents against one gene apart. A plus sign joins genes that one reagent is predicted to hit. No sequences are given here. Not stated in the record: the amount of reagent, the time to read-out.

gene,dsRNA no.,"infection score, replicate 1","infection score, replicate 2","cell count, replicate 1","cell count, replicate 2",Outcome
CG17207,1,4.29,14.1,6464,5475,inactive
CG32243,1,6.72,6.32,6873,6074,inactive
CG5235,1,1.57,4.09,5748,6484,inactive
CG7202,1,28.3,18.3,6617,5931,inactive
CG7202,2,1.04,3.39,5950,6218,inactive
AANATL5,1,6.59,2.94,6042,6385,inactive
HemK2 + Snapin,1,3.37,1.27,6177,6200,inactive
CG14609,1,9.76,7.17,6109,6208,inactive
ng2 + ng1,1,3.36,4.06,5588,5645,inactive
COX6AL2 + Ir75d,1,6.57,6.04,7016,6787,inactive
sotv + CG10731,1,5.37,3.47,5268,6692,inactive
sotv + CG10731,2,10.5,22.6,6502,4283,inactive
FBXO11,1,19.9,22.6,4766,5136,inactive
Dbx,1,3.23,3.02,6163,6416,inactive
Dbx,2,3.25,4.05,6148,5831,inactive
Dbx,3,6.29,7.96,5741,5914,inactive
Dbx,4,4.4,25.4,727,4483,inactive
Atox1,1,1.65,5.61,6050,7025,inactive
CG7551,1,0.49,2.78,6295,6403,inactive
Acp53Ea,1,3.77,3.86,6929,6770,inactive
Blos1,1,6.75,3.68,6624,6492,inactive
ppk12,1,,2.27,481,837,inactive

An excerpt taken from the entries so far:
gene,dsRNA no.,"infection score, replicate 1","infection score, replicate 2","cell count, replicate 1","cell count, replicate 2",Outcome
AANATL5,1,6.59,2.94,6042,6385,inactive
HemK2 + Snapin,1,3.37,1.27,6177,6200,inactive
CG14609,1,9.76,7.17,6109,6208,inactive
ng2 + ng1,1,3.36,4.06,5588,5645,inactive
COX6AL2 + Ir75d,1,6.57,6.04,7016,6787,inactive

The list goes on.
gene,dsRNA no.,"infection score, replicate 1","infection score, replicate 2","cell count, replicate 1","cell count, replicate 2",Outcome
Hug,1,1.62,24.2,6293,4806,inactive
Hug,2,4.16,2.4,6158,6419,inactive
Acp65Aa,1,3.55,2.55,5883,6038,inactive
Acp65Aa,2,4.14,1.04,6187,6135,inactive
CG14105,1,0.56,3.98,6561,6252,inactive
cav,1,7.23,2.84,6291,6374,inactive
cav,2,11.4,2.91,6028,5912,inactive
Agpat4,1,2.29,2.02,5905,6440,inactive
Agpat4,2,3.5,15.6,5948,5904,inactive
Setx,1,3.23,5.04,5515,5650,inactive
Trim9,1,16.1,8.37,5424,5355,inactive
Trim9,2,11.5,0.24,2932,416,inactive
Syt12,1,4.45,4.72,6515,6355,inactive
ref(2)P,1,12.6,4.69,4021,2005,inactive
Spn85F,1,5.28,2.44,6662,6639,inactive
Osi18,1,3.33,0.96,6305,6476,inactive
CG13024,1,2.94,2.89,6024,6480,inactive
CG13024,2,14.8,5.21,6459,5987,inactive
